Reference: patent publication EP0442663A1, “Improvements in chemical compounds” (priority 1990, dated 1991)
Where “and” joins values, the source holds several entries; their conditions need not be identical. Equal entries are not always repeated. Where two headings read alike, the source gives them in different places.

Legend:
HIV-1 (HTLV-IIIB) = type: cell-based
Procedure: (§1) The compounds of the invention were tested in a screen by the MTT method (J.Virol. Methods […]: 309-321 [1988]). MT-4 cells (2.5 x 10⁴ / well) were challenged with HIV-1 (HTLV-IIIB) or HIV-2 (LAV-2 ROD) at a concentration of 100 CCID₅₀ and incubated in the presence of various concentrations of the test compounds, which were added immediately after challenge with the virus. After 5 days culture at 37°C in a CO₂ incubator, the number of viable cells was assessed by the MTT (tetrazolium) method. Antiviral activity and cytotoxicity of the compounds are expressed in the table below as ED₅₀ (ug/ml) and CD₅₀ (ug/ml), respectively. The potential therapeutic usefulness was assessed by calculating a Selectivity Index (SI) corresponding to the ratio of CD₅₀ to ED₅₀. A control test was performed using the known anti-HIV treatment AZT, and a comparison compound HPA-23 was also run through the screen as detailed below. In the table below, the compounds screened were […]

HIV-2 (LAV-2 ROD) = test: MTT method anti-HIV screen in MT-4 cells, HIV-2 challenge; type: cell-based
Procedure: as §1

[1] = Selectivity Index, ratio of CD50 to ED50, HIV-1; 7200 min
[2] = Selectivity Index, ratio of CD50 to ED50, HIV-2; 7200 min
[3] = Selectivity Index, ratio of CD50 to ED50, HIV-1, 7200 min

Row | Substance | SI (HIV-1 (HTLV-IIIB); [1]) | SI (HIV-2 (LAV-2 ROD); [2]) | SI (HIV-1 (HTLV-IIIB); [3]) | SI (HIV-2 (LAV-2 ROD); Selectivity Index, ratio of CD50 to ED50, HIV-2, 7200 min)
1 | K12[H2P2W12O48] [A] | 8138 | 4403 | – | –
2 | K9Li[P2W17O62] [E] | 172 | 59 | – | –
3 | Na7[PrW10O35] [C] | 409 | 285 | – | –
4 | K10[P2W18Co4(H2O)2O68] | 58 | 7 | – | –
5 | (NH₄)₁₂[H₂P₂W₁₂O₄₈].16H₂O [Example 7] | – | – | >171 and 236 | –
6 | (NH₄)₁₇H[NaSb₉W₂₁O₈₆] [HPA 23, reference compound] | <2.7 | <1 | – | –
7 | Reduced form of K₆[P₂W₁₂Mo₆O₆₂] [Example 12] | – | – | 57 and 52 | 173 and 214
8 | Na12[P4W14O58] [F] | 136 | 51 | – | –
9 | K10[P2W18Zn4(H2O)2O68] [B] | 661 | 25 | – | –
